Reference: article PMC8190864
For some of these results: A negative result means that nothing was seen under these conditions. For some of these results: The exact form of at least one protein or probe is not confirmed. For some of these results: At least one result comes from cells or an extract, where the contact may be indirect. For some of these results: Protein sequences can lack the tags named with them.

Sequences of proteins named here, by UniProt entry; tags and fusion partners are left off. Residues count along the entry.
UniProt P02769, 25-607: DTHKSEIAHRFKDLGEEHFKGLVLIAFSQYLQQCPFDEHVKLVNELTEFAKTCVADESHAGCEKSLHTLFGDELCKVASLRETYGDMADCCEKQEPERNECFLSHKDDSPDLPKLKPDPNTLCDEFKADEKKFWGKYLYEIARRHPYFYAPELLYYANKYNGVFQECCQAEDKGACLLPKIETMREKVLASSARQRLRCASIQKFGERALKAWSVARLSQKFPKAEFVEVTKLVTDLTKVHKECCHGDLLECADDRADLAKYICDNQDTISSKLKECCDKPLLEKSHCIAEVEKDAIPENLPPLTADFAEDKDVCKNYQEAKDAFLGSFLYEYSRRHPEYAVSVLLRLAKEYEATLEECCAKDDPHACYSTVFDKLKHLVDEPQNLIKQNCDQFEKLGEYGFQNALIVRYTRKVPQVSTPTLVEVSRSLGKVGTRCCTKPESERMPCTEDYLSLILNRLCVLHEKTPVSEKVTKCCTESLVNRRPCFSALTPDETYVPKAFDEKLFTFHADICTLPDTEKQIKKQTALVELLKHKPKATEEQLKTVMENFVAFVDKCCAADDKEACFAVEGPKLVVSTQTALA

Columns and labels:
[1] = target: T1, TBP (parasite extract) (Trypanosoma cruzi) (UniProt Q4DK05); experiment: pull-down; details: total extract, immunoblot; extracts/pull-down: 12 mM HEPES, 4 mM Tris-HCl pH 8, 1 mM EDTA, 0.5 mM DTT, 6% glycerol, poly(dI-dC), room temperature; protein in an extract; label: 5' biotin on sense strand
T1 sequence (looked up, limits assumed): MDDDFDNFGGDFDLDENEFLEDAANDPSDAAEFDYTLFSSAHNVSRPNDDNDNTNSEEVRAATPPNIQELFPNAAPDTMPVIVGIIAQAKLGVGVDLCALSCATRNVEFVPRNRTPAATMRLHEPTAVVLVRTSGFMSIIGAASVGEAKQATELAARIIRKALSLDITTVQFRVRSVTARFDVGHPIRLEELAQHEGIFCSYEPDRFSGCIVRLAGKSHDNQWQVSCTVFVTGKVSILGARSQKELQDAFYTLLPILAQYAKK

[2] = target: T2, SNAP50 (parasite extract) (Trypanosoma cruzi) (UniProt Q4D342); experiment: pull-down; details: total extract, immunoblot; extracts/pull-down: 12 mM HEPES, 4 mM Tris-HCl pH 8, 1 mM EDTA, 0.5 mM DTT, 6% glycerol, poly(dI-dC), room temperature; protein in an extract; label: 5' biotin on sense strand
T2 sequence (looked up, limits assumed): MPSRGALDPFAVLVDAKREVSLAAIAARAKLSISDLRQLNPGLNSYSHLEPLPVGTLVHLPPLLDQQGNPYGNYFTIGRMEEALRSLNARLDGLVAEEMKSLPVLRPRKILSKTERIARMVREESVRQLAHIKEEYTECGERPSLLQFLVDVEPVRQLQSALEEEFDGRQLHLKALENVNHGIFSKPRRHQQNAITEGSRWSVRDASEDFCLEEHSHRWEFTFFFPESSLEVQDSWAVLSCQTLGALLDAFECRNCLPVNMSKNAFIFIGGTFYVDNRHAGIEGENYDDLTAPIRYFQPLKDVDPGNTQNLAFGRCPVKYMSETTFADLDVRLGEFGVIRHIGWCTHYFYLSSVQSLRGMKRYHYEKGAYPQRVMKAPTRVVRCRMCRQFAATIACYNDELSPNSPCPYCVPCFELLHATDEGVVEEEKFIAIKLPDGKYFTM

[3] = target: T2, SNAP50 (parasite extract) (Trypanosoma cruzi); experiment: EMSA immunoblot; details: nuclear extract, UV, native gel, likely via protein-protein contacts; EMSA: 20 mM Tris pH 7.9, 60 mM KCl, 5 mM MgCl2, 10 mM DTT, 6% glycerol, 0.2 mg/ml BSA, 30 min 37 C; protein in an extract
[4] = target: T1, TBP (parasite extract) (Trypanosoma cruzi); experiment: UV crosslinking, SDS-PAGE immunoblot; details: nuclear extract, ~90 kDa complex; protein in an extract
[5] = target: T2, SNAP50 (parasite extract) (Trypanosoma cruzi); experiment: UV crosslinking, SDS-PAGE immunoblot; details: nuclear or total extract, denatured, no direct crosslink; protein in an extract
BSA (bovine) = BSA (bovine) (UniProt P02769); experiment: EMSA; details: 6.35 uM, with and without UV; EMSA: 20 mM Tris pH 7.9, 60 mM KCl, 5 mM MgCl2, 10 mM DTT, 6% glycerol, 0.2 mg/ml BSA, 30 min 37 C; commercial protein; label: 5' 32P on one strand

Does “CCCTGGCTCAGCCGGCCACCTCAACGTGGTGCCAGGGTCTAGTACTCTTTGCTAGAGAGGAAGCTAAGCGCCTGCTG (double strand) [Biot-dsPr77]” bind [1]?
Result: binds

Does “CCCTGGCTCAGCCGGCCACCTCAACGTGGTGCCAGGGTCTAGTACTCTTTGCTAGAGAGGAAGCTAAGCGCCTGCTG (double strand) [Biot-dsPr77]” bind [2]?
Result: binds

Does “CCCTGGCTCAGCCGGCCACCTCAACGTGGTGCCAGGGTCTAGTACTCTTTGCTAGAGAGGAAGCTAAGCGCCTGCTG (double strand) [dsPr77 unlabelled]” bind [3]?
Result: binds

Does “CCCTGGCTCAGCCGGCCACCTCAACGTGGTGCCAGGGTCTAGTACTCTTTGCTAGAGAGGAAGCTAAGCGCCTGCTG (double strand) [dsPr77 unlabelled]” bind [4]?
Result: binds

Does “CCCTGGCTCAGCCGGCCACCTCAACGTGGTGCCAGGGTCTAGTACTCTTTGCTAGAGAGGAAGCTAAGCGCCTGCTG (double strand) [dsPr77 unlabelled]” bind [5]?
Result: no binding

Does “CCCTGGCTCAGCCGGCCACCTCAACGTGGTGCCAGGGTCTAGTACTCTTTGCTAGAGAGGAAGCTAAGCGCCTGCTG (double strand) [dsPr77]” bind (BSA (bovine))?
Result: no binding

Does “GGGTTTTTGTACACGGTCCCAAGTGCCGCGAAGGACCCCTCATCAAAATTGAAAACCGTTGTGGAACACAACTTCCTTTCAACTAACGCT (double strand) [Biot-SL]” bind [1]?
Result: binds

Does “GGGTTTTTGTACACGGTCCCAAGTGCCGCGAAGGACCCCTCATCAAAATTGAAAACCGTTGTGGAACACAACTTCCTTTCAACTAACGCT (double strand) [Biot-SL]” bind [2]?
Result: binds

Does “GGTACATCCTCGACGGCATCTCAGCCCTGAGAAAGGAGACATGTAACAAGAGTAACATGTGTGAAAGCAGCAAAGAGG / CCTCTTTGCTTTCACACATGTTACTCTTGTTACATGTCTCCTTTCTCAGGGCTGAGATGCCGTCGAGGATGTACC [Biot-IL6]” bind [1]?
Result: no binding

Does “GGTACATCCTCGACGGCATCTCAGCCCTGAGAAAGGAGACATGTAACAAGAGTAACATGTGTGAAAGCAGCAAAGAGG / CCTCTTTGCTTTCACACATGTTACTCTTGTTACATGTCTCCTTTCTCAGGGCTGAGATGCCGTCGAGGATGTACC [Biot-IL6]” bind [2]?
Result: no binding
